Source: PMC8092228 (mBio, 2021)

Molecular target: LOV-PAS construct of Brucella abortus LOV-HK (residues 15 to 273) (Brucella abortus)
Assay: SEC with static light scattering (SEC-SLS)

## LOV-PAS construct of Brucella abortus LOV-HK (residues 15 to 273) (domain or fragment)
  stoichiometry N: 2
